Measured values from several laboratories, pooled; numbers as filed in NIAID ChemDB.

Common to all: growth or infection tests; species: Candida albicans

ECn is the concentration giving n% inhibition of infection, replication or growth.

smiles,measure,strain or isolate,method,result
C[C@@H]1CC[C@@]2(OC1)O[C@H]1[C@@H](O)[C@H]3[C@@H]4CC[C@H]5C[C@@H](O[C@@H]6O[C@H](CO)[C@H](O[C@@H]7O[C@H](CO)[C@@H](O)[C@H](O[C@@H]8OC[C@@H](O)[C@H](O)[C@H]8O)[C@H]7O[C@@H]7O[C@H](CO)[C@H](O)[C@H](O[C@@H]8O[C@H](CO)[C@@H](O)[C@H](O)[C@H]8O)[C@H]7O)[C@H](O)[C@H]6O)[C@H](O)C[C@]5(C)[C@H]4CC[C@]3(C)[C@H]1[C@@H]2C,EC50,MY1055,,5 µg/mL
COc1cc2ccc(=O)oc2cc1OCC=C(C)C,MIC,,,30 µg/mL
CCCCOC(=O)/C=C\C(=O)OCCCC,MIC,ATCC 10231,,>100 µg/mL
CO[C@@H]1[C@@H](O)[C@H](O[C@@H]2[C@@H](O)[C@H](O[C@H]3[C@H](O)[C@@H](O)[C@H](O[C@H]4[C@H](O[C@H]5CC[C@]6(C)C7=C[C@H](O)[C@]89C(=O)O[C@@](C)(C/C=C/C(C)(C)O)[C@H]8CC[C@@]9(C)[C@@H]7CC[C@H]6C5(C)C)OC[C@@H](O[C@@H]5O[C@H](CO)[C@@H](O)[C@H](O[C@@H]6O[C@H](CO)[C@@H](O)[C@H](OC)[C@H]6O)[C@H]5O)[C@@H]4O)O[C@@H]3C)O[C@H](CO)[C@H]2O)O[C@H](CO)[C@H]1O,MIC80,ATCC 76615,,44.44 µM
C=C1CC[C@H]2C(C)(C)CCC[C@]2(C)[C@H]1C/C(OS(=O)(=O)[O-])=C(\C)CCC/C(C)=C/Cc1cc(O)ccc1O.[Na+],MIC,ATCC 10231,,>100 µg/mL
Oc1ccccc1N=Cc1ccc2cccc(O)c2n1,MIC80,,,62.5 µg/mL
CC1=CCC[C@@H](C)C1(C)CC/C(C)=C/CCC(CCCc1ccoc1)COS(=O)(=O)[O-],MIC,ATCC 10231,,>100 µg/mL
OC(Cn1cncn1)(Cn1cncn1)c1ccc(F)cc1F,MIC80,ATCC 76615,,0.82 µM
CCCCCCOC(=O)/C=C\C(=O)OCCCCCC,MIC,ATCC 10231,,>100 µg/mL
CCCC1=[N+](Cc2ccccc2)CCc2cc(OCc3ccccc3)c(OCc3ccccc3)cc21,MIC,IFO1061,,3.9 µg/mL
CO[C@@H]1[C@@H](O)[C@H](O[C@@H]2[C@@H](O)[C@H](O[C@H]3[C@H](O)[C@@H](O)[C@H](O[C@H]4[C@H](O[C@H]5CC[C@]6(C)C7=C[C@H](O)[C@]89C(=O)O[C@@](C)(CCCC(C)(C)OC(C)=O)[C@H]8CC[C@@]9(C)[C@@H]7CC[C@H]6C5(C)C)OC[C@@H](O[C@@H]5O[C@H](CO)[C@@H](O)[C@H](O[C@@H]6O[C@H](CO)[C@@H](O)[C@H](OC)[C@H]6O)[C@H]5O)[C@@H]4O)O[C@@H]3C)O[C@H](CO)[C@H]2O)O[C@H](CO)[C@H]1O,MIC80,ATCC 76615,,43.13 µM
O=c1c2ccccc2ncn1NC(c1ccc(O)cc1O)P(=O)(Oc1ccccc1)Oc1ccccc1,MIC,,agar diffusion / agar,10 µg/mL
CCCC1c2cc(OCc3ccccc3)c(OCc3ccccc3)cc2CCN1Cc1ccccc1,MIC,IFO1061,,>500 µg/mL
Oc1cccc(N=Cc2ccc3cccc(O)c3n2)c1,MIC80,,,125 µg/mL
COC(=O)[C@H]1[C@@H]2C[C@@H](O[C@@H]3O[C@H](C)[C@@H](O)[C@H](N)[C@@H]3O)/C=C/C=C/C=C/C=C/C=C/C=C/C=C/[C@H](C)[C@@H](O)[C@H](C)[C@H](C)OC(=O)C[C@H](O)C[C@H](O)[C@@H](O)CC[C@H](O)C[C@H](O)C[C@](O)(C[C@@H]1O)O2,MIC80,ATCC 76615,,0.27 µM
O=c1c2ccccc2ncn1NC(c1cccc([N+](=O)[O-])c1)P(=O)(Oc1ccccc1)Oc1ccccc1,MIC,,agar diffusion / agar,100 µg/mL
C[C@@H](c1nc(-c2ccc(C#N)cc2)cs1)[C@](O)(Cn1cnnc1)c1ccc(F)cc1F,MIC,Isogenic mutant isolate 1,,0.004 µg/mL
COc1cc(OC)c(C(C)=O)c(OC)c1,MIC,,,>50 µg/mL
Oc1ccc(N=Nc2c(Cl)cccc2Cl)c2cccnc12,MIC80,,,31.25 µg/mL
CCC(C)CC(C)CCCCCCCCC(=O)N[C@H]1C[C@@H](O)[C@@H](OCCN)NC(=O)[C@@H]2C[C@@H](O)CN2C(=O)[C@H]([C@H](O)CCN)NC(=O)[C@H]([C@H](O)[C@@H](O)c2ccc(O)cc2)NC(=O)[C@@H]2C[C@@H](O)CN2C(=O)[C@H]([C@@H](C)O)NC1=O,MIC,MY2301,,0.25 µg/mL
C[C@@H]1CCC2=C(CCCC2(C)C)[C@@]1(C)CC[C@H](CCCc1ccoc1)COS(=O)(=O)[O-],MIC,ATCC 10231,,>100 µg/mL
CCCCCc1nccc2cc(O)c(O)cc12,MIC,IFO1061,,>500 µg/mL
CC(=O)O[C@@H]1C[C@@]23C(=O)OC[C@](C)([C@@H]2CC[C@H]2C3=CC[C@@]3(C)[C@H](C(=O)O)[C@@](C)([C@H](C)C(C)C)CC[C@]23C)[C@H]1O[C@@H]1O[C@H](CO)[C@@H](O)[C@H](O)[C@H]1O,EC50,MY1055,,>20 µg/mL
CC(C)=CCOc1ccc2c(c1C)C(=O)c1ccccc1C2=O,MIC,Standard strain,broth dilution,31.25 µg/mL
CCCCCOC(=O)C(F)C(Br)C(=O)OCCCCC,MIC,ATCC 10231,,>100 µg/mL
CC1=CC[C@H]2C(C)(C)CCC[C@]2(C)[C@H]1C/C(OS(=O)(=O)[O-])=C(\C)CCC/C(C)=C/Cc1cc(O)ccc1O,MIC,ATCC 10231,,>100 µg/mL
COC(=O)C(Br)CF,MIC,ATCC 10231,,>100 µg/mL
Cc1cc(Cl)nc(NC(c2ccc(O)cc2O)P(=O)(Oc2ccccc2)Oc2ccccc2)n1,MIC,,agar diffusion / agar,10 µg/mL
COc1ccc2ccc(=O)oc2c1,MIC,,,40 µg/mL
COC(=O)/C=C/CC(=O)OC,MIC,ATCC 10231,,>100 µg/mL
COc1cc(OC)c2ccc(=O)oc2c1,MIC,,,30 µg/mL
Cc1cc(Cl)nc(N)n1,MIC,,agar diffusion / agar,1000 µg/mL
CC(C)C1c2cc(OCc3ccccc3)c(OCc3ccccc3)cc2CCN1Cc1ccccc1,MIC,IFO1061,,>500 µg/mL
CO[C@@H]1[C@@H](O)[C@H](O[C@@H]2[C@@H](O)[C@H](O[C@H]3[C@H](O)[C@@H](O)[C@H](O[C@H]4[C@H](O[C@H]5CC[C@]6(C)C7=C[C@H](O)[C@]89C(=O)O[C@@](C)(CCC=C(C)C)[C@@]8(O)CC[C@@]9(C)[C@@H]7CC[C@H]6C5(C)C)OC[C@@H](O[C@@H]5O[C@H](CO)[C@@H](O)[C@H](O[C@@H]6O[C@H](CO)[C@@H](O)[C@H](OC)[C@H]6O)[C@H]5O)[C@@H]4O)O[C@@H]3C)O[C@H](CO)[C@H]2O)O[C@H](CO)[C@H]1O,MIC80,ATCC 76615,,2.78 µM

A second listing of 3 rows from above:

CO[C@@H]1[C@@H](O)[C@H](O[C@@H]2[C@@H](O)[C@H](O[C@H]3[C@H](O)[C@@H](O)[C@H](O[C@H]4[C@H](O[C@H]5CC[C@]6(C)C7=C[C@H](O)[C@]89C(=O)O[C@@](C)(C/C=C/C(C)(C)O)[C@H]8CC[C@@]9(C)[C@@H]7CC[C@H]6C5(C)C)OC[C@@H](O[C@@H]5O[C@H](CO)[C@@H](O)[C@H](O[C@@H]6O[C@H](CO)[C@@H](O)[C@H](OC)[C@H]6O)[C@H]5O)[C@@H]4O)O[C@@H]3C)O[C@H](CO)[C@H]2O)O[C@H](CO)[C@H]1O ; measure: MIC80 ; strain or isolate: ATCC 76615 ; result: 44.44 µM
COC(=O)C(Br)CF ; measure: MIC ; strain or isolate: ATCC 10231 ; result: >100 µg/mL
COc1cc(OC)c2ccc(=O)oc2c1 ; measure: MIC ; result: 30 µg/mL

Neighbouring rows are from separate reports. Blank or dashed fields: not listed here. MIC50, MIC90 and the like: level of inhibition, or share of isolates inhibited.